Results of unrelated studies side by side (data: NIAID ChemDB).

All rows: tests in culture; agent: Staphylococcus aureus

A number after MIC or MFC names an inhibition level or a share of isolates.

smiles,strain or isolate,measure,result
CCNc1c(F)cc2c(=O)c(C(=O)O)cn(-c3cc(N)c(F)cc3F)c2c1C,W806 (methicillin-resistant),MIC,0.25 µg/mL
CC[C@H]1OC(=O)[C@H](C)C(=O)[C@H](C)[C@@H](O[C@@H]2O[C@H](C)C[C@H](N(C)C)[C@H]2O)[C@@]2(C)C[C@@H](C)C(=NC(C)=O)[C@H](C)[C@@H](OC/C(=N\OCc3cccc(N)n3)CO2)[C@]1(C)O,27660 (erythromycin-resistant),MIC,0.13 µg/mL
O=C1O[C@@H](CNc2ccon2)CN1c1ccc(-n2cnc(CO)c2)c(F)c1,004 (methicillin quinolone-resistant),MIC,2 µg/mL
CC[C@H]1OC(=O)[C@@](C)(F)C(=O)[C@H](C)[C@@H](O[C@@H]2O[C@H](C)C[C@H](N(C)C)[C@H]2O)[C@@]2(C)C[C@@H](C)C(=NC(C)=O)[C@H](C)[C@@H](OC/C(=N\OCc3ccc4cnn(C(N)=O)c4c3)CO2)[C@]1(C)O,33591 (erythromycin methicillin-resistant),MIC,>64 µg/mL
CC1(C)CC(CNc2cc3c(cc2F)c(=O)c(C(=O)O)cn3C2CC2)CC(C)(C)N1,ATCC 5278 (methicillin-resistant),MIC,>100 µg/mL
CCCCCCCC[N+](C)(C)COC(C)CCC,ATCC 6538,MBC,17 µM
Cc1c(N)c(F)cc2c(=O)c(C(=O)O)cn(-c3cc(N)c(F)cc3F)c12,27 isolates,MIC90,0.015 µg/mL
O=C(O)c1cn(-c2ccc(F)cc2F)c2cc(NCCO)c(F)cc2c1=O,ATCC 6538P,MIC,0.78 µg/mL
CC[C@H]1OC(=O)[C@H](C)C(=O)[C@H](C)[C@@H](O[C@@H]2O[C@H](C)C[C@H](N(C)C)[C@H]2O)[C@@]2(C)C[C@@H](C)C(=NC(C)=O)[C@H](C)[C@@H](OC/C(=N\Oc3ccccc3)CO2)[C@]1(C)O,33591 (erythromycin methicillin-resistant),MIC,>64 µg/mL
CC[C@H]1OC(=O)[C@H](C)C(=O)[C@H](C)[C@@H](O[C@@H]2O[C@H](C)C[C@H](N(C)C)[C@H]2O)[C@@]2(C)C[C@@H](C)C(=NC(C)=O)[C@H](C)[C@@H](OC/C(=N\OCc3ccc(C(N)=O)s3)CO2)[C@]1(C)O,33591 (erythromycin methicillin-resistant),MIC,>64 µg/mL
CCCCCCCCCCCC[N+](C)(C)CSCCCCCC,ATCC 6538,MIC,13.1 µM
CC[C@H]1OC(=O)[C@H](C)C(=O)[C@H](C)[C@@H](O[C@@H]2O[C@H](C)C[C@H](N(C)C)[C@H]2O)[C@@]2(C)C[C@@H](C)C(=NC(C)=O)[C@H](C)[C@@H](OC/C(=N\OCc3ccc(C(N)=O)cc3)CO2)[C@]1(C)O,33591 (erythromycin methicillin-resistant),MIC,>64 µg/mL
O=C(CO)N1CCN(c2ccc(N3C[C@H](CNc4ccon4)OC3=O)cc2F)CC1,122 (novobiocin-resistant),MIC,4 µg/mL
CNc1c(F)cc2c(=O)c(C(=O)O)cn(-c3cc(N)c(F)cc3F)c2c1C,W44 (methicillin-resistant),MIC,0.25 µg/mL
CCCCCCCCCCCC[N+](C)(C)COCC,ATCC33592,MBC,9.74 µM
CC[C@H]1OC(=O)[C@@](C)(F)C(=O)[C@H](C)[C@@H](O[C@@H]2O[C@H](C)C[C@H](N(C)C)[C@H]2O)[C@@]2(C)C[C@@H](C)C(=NC(C)=O)[C@H](C)[C@@H](OC/C(=N\OCc3ccc(-n4cccn4)nc3)CO2)[C@]1(C)O,29213 (erythromycin A-susceptible),MIC,0.25 µg/mL
O=C1O[C@@H](COc2cnsn2)CN1c1ccc(-n2ccnc2)c(F)c1,122 (novobiocin-resistant),MIC,0.5 µg/mL
NCCCCCCCNc1cc2c(cc1F)c(=O)c(C(=O)O)cn2C1CC1,ATCC 5278 (methicillin-resistant),MIC,>100 µg/mL
CC[C@H]1OC(=O)[C@@](C)(F)C(=O)[C@H](C)[C@@H](O[C@@H]2O[C@H](C)C[C@H](N(C)C)[C@H]2O)[C@@]2(C)C[C@@H](C)C(=NC(C)=O)[C@H](C)[C@@H](OC/C(=N\OCc3ccc(-c4nccs4)nc3)CO2)[C@]1(C)O,33591 (erythromycin methicillin-resistant),MIC,16 µg/mL
CCC(N)CCNc1cc2c(cc1F)c(=O)c(C(=O)O)cn2C1CC1,ATCC 6538P,MIC,1.56 µg/mL
CC[C@H]1OC(=O)[C@@](C)(F)C(=O)[C@H](C)[C@@H](O[C@@H]2O[C@H](C)C[C@H](N(C)C)[C@H]2O)[C@@]2(C)C[C@@H](C)C(=NC(C)=O)[C@H](C)[C@@H](OC/C(=N\OCc3ccc(N)nc3)CO2)[C@]1(C)O,27660 (erythromycin A -resistant),MIC,<0.06 µg/mL
CCCCCCCCCCCC[N+](C)(C)COC1CCCCCCCCCCC1,ATCC 6538,MIC,3.36 µM
CC(O)CNc1cc2c(cc1F)c(=O)c(C(=O)O)cn2C1CC1,ATCC 5278 (methicillin-resistant),MIC,>100 µg/mL
N=Cc1cn(-c2ccc(N3C[C@H](COc4ccon4)OC3=O)cc2F)cn1,004 (methicillin quinolone-resistant),MIC,2 µg/mL
CC[C@H]1OC(=O)[C@H](C)C(=O)[C@H](C)[C@@H](O[C@@H]2O[C@H](C)C[C@H](N(C)C)[C@H]2O)[C@@]2(C)C[C@@H](C)C(=NC(C)=O)[C@H](C)C(OC/C(=N\OCc3ccccc3)CO2)[C@]1(C)O,27660 (erythromycin-resistant),MIC,0.25 µg/mL
CC[C@H]1OC(=O)[C@@](C)(F)C(=O)[C@H](C)[C@@H](O[C@@H]2O[C@H](C)C[C@H](N(C)C)[C@H]2O)[C@@]2(C)C[C@@H](C)C(=O)[C@H](C)[C@@H](OC/C(=N\OCc3ccc(-n4cccn4)nc3)CO2)[C@]1(C)O,27660 (erythromycin A -resistant),MIC,0.06 µg/mL
CCNCCNc1cc2c(cc1F)c(=O)c(C(=O)O)cn2C1CC1,ATCC 6538P,MIC,>100 µg/mL
CCCCCCCCCCCC[N+](C)(C)COC1CCCCC1,ATCC33592,MIC,2.76 µM
CC[C@H]1OC(=O)[C@@](C)(F)C(=O)[C@H](C)[C@@H](O[C@@H]2O[C@H](C)C[C@H](N(C)C)[C@H]2O)[C@@]2(C)C[C@@H](C)C(=NC(C)=O)[C@H](C)[C@@H](OC/C(=N\OCc3ccc4nc(N)sc4c3)CO2)[C@]1(C)O,29213 (erythromycin A-susceptible),MIC,0.13 µg/mL
O=C(O)c1cn(C2CC2)c2cc(NCCN3CCCCC3)c(F)cc2c1=O,ATCC 5278 (methicillin-resistant),MIC,>100 µg/mL

4 of the rows above, restated:

{"smiles": "CCC(N)CCNc1cc2c(cc1F)c(=O)c(C(=O)O)cn2C1CC1", "strain or isolate": "ATCC 6538P", "measure": "MIC", "result": "1.56 µg/mL"}
{"smiles": "CNc1c(F)cc2c(=O)c(C(=O)O)cn(-c3cc(N)c(F)cc3F)c2c1C", "strain or isolate": "W44 (methicillin-resistant)", "measure": "MIC", "result": "0.25 µg/mL"}
{"smiles": "CCCCCCCCCCCC[N+](C)(C)COC1CCCCC1", "strain or isolate": "ATCC33592", "measure": "MIC", "result": "2.76 µM"}
{"smiles": "CC(O)CNc1cc2c(cc1F)c(=O)c(C(=O)O)cn2C1CC1", "strain or isolate": "ATCC 5278 (methicillin-resistant)", "measure": "MIC", "result": ">100 µg/mL"}

Lines come from different laboratories, so protocols vary.